Laboratory results published in US20240353338A1 (priority 2023, published 2024).

Target: SARS-CoV-2 M^pro (Severe acute respiratory syndrome coronavirus 2, UniProt P0DTD1)
Assay: TRIP screening of M^pro inhibitor binding and binding strength/affinity

C[C@@H](OC(C)(C)C)[C@H](NC(=O)OCc1ccccc1)C(=O)N[C@@H](CC1CCCCC1)C(=O)N[C@H](C=O)C[C@@H]1CCNC1=O [MPI8]
binding strength/affinity by TRIP (total change in phenylalanine peak), compared among ligands: substantially higher efficiency in binding and dimerizing the protease
